This is an account of results in patent US20240122867A1, “CORONAL PROTEIN-COATED NANOPARTICLES AND USES THEREOF” (UNIVERSITY OF CENTRAL FLORIDA RESEARCH FOUNDATION, INC., priority 2021, published 2024).

The series has as its system coronal proteins on NPs. Further details: species or system mouse. To be noted: for V5 Sera_Nanoparticles Quantitative Value (Normalized Total Spectra): HBPE-NPs incubated 1 h with IAV day 5 (V5) mouse sera, 20:1 NP:sera, centrifuged and washed; for V5 Sera Alone (Control) Quantitative Value (Normalized Total Spectra): IAV day 5 (V5) mouse sera alone, no NPs (sera-only control).

B1: Alpha-1-antitrypsin 1-5 (protein, UniProt Q00898 25-413, looked up)
Alpha-1-antitrypsin 1-5: EDVQETDTSQKDQSPASHEIATNLGDFAISLYRELVHQSNTSNIFFSPVSIATAFAMLSLGSKGDTHTQILEGLQFNLTQTSEADIHNSFQHLLQTLNRPDSELQLSTGNGLFVNNDLKLVEKFLEEAKNHYQAEVFSVNFAESEEAKKVINDFVEKGTQGKIVEAVKKLEQDTVFVLANYILFKGKWKKPFDPENTKQAEFHVDESTTVKVPMMTLSGMLDVHHCSTLSSWVLLMDYAGNATAVFLLPDDGKMQHLEQTLNKELISKFLLNRRRRLAQIHIPRLSISGNYNLETLMSPLGITRIFNSGADLSGITEENAPLKLSQAVHKAVLTIDETGTEAAAATVLQGGFLSMPPILHFNRPFLFIIFEEHSQSPLFVGKVVDPTHK
Regarding B1, the “V5 Sera_Nanoparticles Quantitative Value (Normalized Total Spectra)” value worked out at 6.5275 and the “V5 Sera Alone (Control) Quantitative Value (Normalized Total Spectra)” value (from here on “V5 Sera Alone … (Normalized Total Spectra)”) was found to be 21.28.

B2: Properdin (protein, UniProt P11680 23-464, looked up)
Properdin: SDPVLCFTQYEESSGRCKGLLGRDIRVEDCCLNAAYAFQEHDGGLCQACRSPQWSAWSLWGPCSVTCSEGSQLRHRRCVGRGGQCSENVAPGTLEWQLQACEDQPCCPEMGGWSEWGPWGPCSVTCSKGTQIRQRVCDNPAPKCGGHCPGEAQQSQACDTQKTCPTHGAWASWGPWSPCSGSCLGGAQEPKETRSRSCSAPAPSHQPPGKPCSGPAYEHKACSGLPPCPVAGGWGPWSPLSPCSVTCGLGQTLEQRTCDHPAPRHGGPFCAGDATRNQMCNKAVPCPVNGEWEAWGKWSDCSRLRMSINCEGTPGQQSRSRSCGGRKFNGKPCAGKLQDIRHCYNIHNCIMKGSWSQWSTWSLCTPPCSPNATRVRQRLCTPLLPKYPPTVSMVEGQGEKNVTFWGTPRPLCEALQGQKLVVEEKRSCLHVPVCKDPEEKKP
Regarding B2, the “V5 Sera_Nanoparticles Quantitative Value (Normalized Total Spectra)” value came out at 8.7034 and the “V5 Sera Alone … (Normalized Total Spectra)” value was 8.327.

B3: Coagulation factor X (protein, UniProt O88947 41-481, looked up)
Coagulation factor X: ANSFFEEFKKGNLERECMEEICSYEEVREIFEDDEKTKEYWTKYKDGDQCESSPCQNQGACRDGIGGYTCTCSEGFEGKNCELFVRKLCRLDNGDCDQFCREEQNSVVCSCASGYFLGNDGKSCISTAPFPCGKITTGRRKRSVALNTSDSELDLEDALLDEDFLSPTENPIELLNLNETQPERSSDDLVRIVGGRECKDGECPWQALLINEDNEGFCGGTILNEFYILTAAHCLHQARRFKVRVGDRNTEKEEGNEMVHEVDVVIKHNKFQRDTYDYDIAVLRLKTPITFRMNVAPACLPQKDWAESTLMTQKTGIVSGFGRTHEKGRQSNILKMLEVPYVDRNTCKLSTSFSITQNMFCAGYEAKLEDACQGDSGGPHVTRFKNTYYVTGIVSWGEGCARKGKYGIYTKVTTFLKWIDRSMKARVGPTAETPRTAGPPN
For B3, the “V5 Sera_Nanoparticles Quantitative Value (Normalized Total Spectra)” value is on record as 6.5275 and the “V5 Sera Alone … (Normalized Total Spectra)” value turned out to be 4.6261.

B4: Fetuin-B (protein, UniProt Q9QXC1 19-388, looked up)
Fetuin-B: RSPPAPPLPQRPLSPLHPLGCNDSEVLAVAGFALQNINRDQKDGYMLSLNRVHDVREHYQEDMGSLFYLTLDVLETDCHVLSRKAQKDCKPRMFYESVYGQCKAMFHINKPRRVLYLPAYNCTLRPVSKRKTHTTCPDCPSPIDLSNPSALEAATESLAKFNSKSPSKKYELVKVTKAMNQWVSGPAYYVEYLIKEAPCTKSQASCSLQHSDSEPVGICQGSTVQSSLRHVPLIQPVEKSVTVTCEFFESQAQVPGDENPAVTQGPQKLPQKNTAPTSSPSVTAPRGSIQHLPELDDEKPEESKGGSPEEAFPVQLDLTTNPQGDTLDVSFLYLEPGDKKLVVLPFPGKEQRSAECPGPEKENNPLVLPP
Regarding B4, the “V5 Sera_Nanoparticles Quantitative Value (Normalized Total Spectra)” value is listed as 8.7034 and the “V5 Sera Alone … (Normalized Total Spectra)” value worked out at 10.178.

B5: Carboxypeptidase N subunit 2 (protein, UniProt Q9DBB9 22-547, looked up)
Carboxypeptidase N subunit 2: CPVGCDCFGREVFCSDEQLADIPPDIPPHITDIVFVETAFTTVRTRAFSGSPNLTKVVFLNTQVRHLEPDAFGGLPRLQDLEITGSPVSNLSAHIFSNLSSLEKLTLDFDRLAGLPEDLFCHMDILESLQLQGNQLRTLPGRLFQSLRDLRTLNLAQNLLTQLPKGAFQSLTGLQMLKLSNNMLARLPEGALGSLSSLQELFLDGNAITELSPHLFSQLFSLEMLWLQHNAICHLPVSLFSSLHNLTFLSLKDNALRTLPEGLFAHNQGLLHLSLSYNQLETIPEGAFTNLSRLVSLTLSHNAITDLPEHVFRNLEQLVKLSLDSNNLTALHPALFHNLSRLQLLNLSRNQLTTLPGGIFDTNYDLFNLALLGNPWQCDCHLSYLTSWLRLYNNQISNTHTFCAGPAYLKGQLVPNLKQEQLICPVNPGHLSFRALGLDEGEPAGSWDLTVEGRAAHSQCAYSNPEGTVLLACEESRCRWLNIQLSSRDGSDSAAMVYNSSQEWGLRSSCGLLRVTVSIEAPAAGP
For B5, the “V5 Sera_Nanoparticles Quantitative Value (Normalized Total Spectra)” value is 6.5275 and the “V5 Sera Alone … (Normalized Total Spectra)” value is 7.4018.

B6: Ig gamma-2B chain C region (protein, UniProt P01867 1-404, looked up)
Immunoglobulin heavy constant …: KTTPPSVYPLAPGCGDTTGSSVTLGCLVKGYFPESVTVTWNSGSLSSSVHTFPALLQSGLYTMSSSVTVPSSTWPSQTVTCSVAHPASSTTVDKKLEPSGPISTINPCPPCKECHKCPAPNLEGGPSVFIFPPNIKDVLMISLTPKVTCVVVDVSEDDPDVQISWFVNNVEVHTAQTQTHREDYNSTIRVVSTLPIQHQDWMSGKEFKCKVNNKDLPSPIERTISKIKGLVRAPQVYILPPPAEQLSRKDVSLTCLVVGFNPGDISVEWTSNGHTEENYKDTAPVLDSDGSYFIYSKLNMKTSKWEKTDSFSCNVRHEGLKNYYLKKTISRSPGLDLDDICAEAKDGELDGLWTTITIFISLFLLSVCYSASVTLFKVKWIFSSVVELKQKISPDYRNMIGQGA
For B6, the “V5 Sera_Nanoparticles Quantitative Value (Normalized Total Spectra)” value turned out to be 8.7034 and the “V5 Sera Alone … (Normalized Total Spectra)” value amounted to 10.178.

B7: Complement component C8 alpha chain (protein, UniProt Q8K182 31-587, looked up)
Complement component C8 alpha …: AVTPQAVSCQLSDWYKWTDCFPCQDKKYRYRSLLQPSKFGGTICSGDIWDEASCDSPTPCLRQAQCGQDFQCRETGRCLKRHLVCNGDNDCLDGSDESDCEDVRVTEDDCHQYEPIPGSERAALGYNILTQEEAQSVYDAKYYGGQCETVYNGDWRKLRYDPTCERLYYGEDEKYFRKPYNFLKYHFEALADTSISSEFYDDANDLFFHIKNGKSHSAGVTVGVAPVKSPVSIEVTGSGSKASSFLNKLNKYNEKRYGFMRVSTKIQTAQFKMRRNNIVLDEGMLQSLMELPEQFNYGMYAKFINDYGTHYITSGTMGGIYEYVMVLDKEKMKTEGTTVDEVQKCIGGGIGIGIKDSTIEGVGISGEFCENSGDGDRDIRKKITGVEDIISRVQGGSSVWGSVLTHNSSAITYQSWGRSLKYNPVVIDFEMQPIYQLLRHTNLGPLETKRQNLRRALDQYLMEFNACRCGPCFNNGEPILDGTNCRCQCSMGRQGLACERTVIEGLKDFKAAGHWSCWSSWSECRGGSQERRRQCNNPPPKNGGTPCLGRNLQTQAC
On to B7, for which the “V5 Sera_Nanoparticles Quantitative Value (Normalized Total Spectra)” value worked out at 8.7034 and the “V5 Sera Alone … (Normalized Total Spectra)” value is on record as 3.7009.

B8: CD5 antigen-like (protein, UniProt Q9QWK4 22-352, looked up)
CD5 antigen-like: ESPTKVQLVGGAHRCEGRVEVEHNGQWGTVCDDGWDRRDVAVVCRELNCGAVIQTPRGASYQPPASEQRVLIQGVDCNGTEDTLAQCELNYDVFDCSHEEDAGAQCENPDSDLLFIPEDVRLVDGPGHCQGRVEVLHQSQWSTVCKAGWNLQVSKVVCRQLGCGRALLTYGSCNKNTQGKGPIWMGKMSCSGQEANLRSCLLSRLENNCTHGEDTWMECEDPFELKLVGGDTPCSGRLEVLHKGSWGSVCDDNWGEKEDQVVCKQLGCGKSLHPSPKTRKIYGPGAGRIWLDDVNCSGKEQSLEFCRHRLWGYHDCTHKEDVEVICTDFDV
B8: the “V5 Sera_Nanoparticles Quantitative Value (Normalized Total Spectra)” value was determined as 9.7913 and the “V5 Sera Alone … (Normalized Total Spectra)” value was 9.2523.

B9: Sulfhydryl oxidase 1 (protein, UniProt Q8BND5 33-748, looked up)
Sulfhydryl oxidase 1: ARLSVLYSSSDPLTLLDADSVRPTVLGSSSAWAVEFFASWCGHCIAFAPTWKELANDVKDWRPALNLAVLDCAEETNSAVCREFNIAGFPTVRFFQAFTKNGSGATLPGAGANVQTLRMRLIDALESHRDTWPPACPPLEPAKLNDIDGFFTRNKADYLALVFEREDSYLGREVTLDLSQYHAVAVRRVLNTESDLVNKFGVTDFPSCYLLLRNGSVSRVPVLVESRSFYTSYLRGLPGLTRDAPPTTATPVTADKIAPTVWKFADRSKIYMADLESALHYILRVEVGKFSVLEGQRLVALKKFVAVLAKYFPGQPLVQNFLHSINDWLQKQQKKRIPYSFFKAALDSRKEDAVLTEKVNWVGCQGSEPHFRGFPCSLWVLFHFLTVQANRYSEAHPQEPADGQEVLQAMRSYVQFFFGCRDCADHFEQMAAASMHQVRSPSNAILWLWTSHNRVNARLSGALSEDPHFPKVQWPPRELCSACHNELNGQVPLWDLGATLNFLKAHFSPANIVIDSSASRHTGRRGSPEATPELVMDTLKLESRNSVLGHEQAASAESPGATALDVPAEKPEASGPQELYTGLRMGGASPGQGPPERMEDHQRDMQENAPGQQHLSKRDTEALFLPEVNHLQGPLELRRGGRSPKQLAPILEEEPEALAIQGQGQWLQVLGGGISHLDISLCVGLYSVSFMGLLAMYTYFRARLRTPKGHASYPTA
Take B9: the “V5 Sera_Nanoparticles Quantitative Value (Normalized Total Spectra)” value came out at 9.7913 and the “V5 Sera Alone … (Normalized Total Spectra)” value is on record as 6.4766.

B10: Carbonic anhydrase 1 (protein, UniProt P13634 2-261, looked up)
Carbonic anhydrase 1: ASADWGYGSENGPDQWSKLYPIANGNNQSPIDIKTSEANHDSSLKPLSISYNPATAKEIVNVGHSFHVIFDDSSNQSVLKGGPLADSYRLTQFHFHWGNSNDHGSEHTVDGTRYSGELHLVHWNSAKYSSASEAISKADGLAILGVLMKVGPANPSLQKVLDALNSVKTKGKRAPFTNFDPSSLLPSSLDYWTYFGSLTHPPLHESVTWVICKDSISLSPEQLAQLRGLLSSAEGEPAVPVLSNHRPPQPLKGRTVRASF
Consider B10, for which the “V5 Sera_Nanoparticles Quantitative Value (Normalized Total Spectra)” value was found to be 6.5275 and the “V5 Sera Alone … (Normalized Total Spectra)” value came to 0.

B11: Serum amyloid A-1 protein (protein, UniProt P05366 20-122, looked up)
Serum amyloid A-1 protein: GFFSFVHEAFQGAGDMWRAYTDMKEANWKNSDKYFHARGNYDAAQRGPGGVWAAEKISDGREAFQEFFGRGHEDTIADQEANRHGRSGKDPNYYRPPGLPDKY
On to B11, for which the “V5 Sera_Nanoparticles Quantitative Value (Normalized Total Spectra)” value turned out to be 7.6154 and the “V5 Sera Alone … (Normalized Total Spectra)” value was 24.056.
